Results from paper PMC5318444.
Construct, isoform or probe ends are uncertain for at least one entry. Tags and fusion partners may be left off the protein sequences shown.

Biological target: T1, FNR D154A tandem dimer, His6-(FNR-FNR)2 (UniProt P0A9E6)
T1 sequence (looked up, limits assumed): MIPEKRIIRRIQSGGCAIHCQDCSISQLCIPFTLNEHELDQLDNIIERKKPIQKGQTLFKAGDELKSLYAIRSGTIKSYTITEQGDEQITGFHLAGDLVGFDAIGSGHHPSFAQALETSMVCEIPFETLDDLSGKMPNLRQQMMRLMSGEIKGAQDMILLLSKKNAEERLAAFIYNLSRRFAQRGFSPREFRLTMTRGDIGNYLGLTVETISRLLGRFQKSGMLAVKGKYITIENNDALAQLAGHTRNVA
Test: EMSA
Conditions: 10 mM Tris pH 7.5, 1 mM EDTA, 1 mM DTT, 50 mM KCl, 50 mM MgCl2, 1 ug/ml BSA; 10 nM DNA, protein 0-240 nM; 30 min room temperature (ArcA); recombinant protein; protein details: His6; probe letters rebuilt from the primers and the genome

Sequence: GGCGCGTCTTATACTCCCACATAAGCCAGATTCAACAGCGAATACGTCTTCCCCAAATTGCCCACTTCCATACTTCCTCCTTACCAGAAATCTATCCTTAAGCTCCTTAATAACCATTTTCCTGCTAACTAAATTCATGGTTAAGGTTGCATAATGATATGCAACAAATGTATAACATTTTTCTTACCAAAAAATAAACAAAAGCGACCGACAAAAGCATTGGATTACGGCAGGAG (double strand) [kgtP promoter probe]
- binding result: binds
